Measured values from several laboratories, pooled; numbers as filed in NIAID ChemDB.

Common to all: growth or infection tests; species: Candida albicans; endpoint: MIC

An empty or dashed field is not shown.

| compound | strain | read by | result |
|---|---|---|---|
| CCc1nc(SCC(=O)N/N=C(\C)c2ccccc2Cl)n[nH]1 | ATCC 90028 |  | 200 µg/mL |
| C[C@@H](n1cnc2cc(-n3ncnn3)ccc2c1=O)[C@](O)(Cn1cncn1)c1ccc(F)cc1F | 76 strains |  | 5 µg/mL |
| CCCCCCCCCCCCCCCCCC(=O)NC1CC(O)C(O)NC(=O)C2C(O)C(C)CN2C(=O)C(C(C)O)NC(=O)C(C(O)C(O)c2ccc(O)cc2)NC(=O)C2CC(O)CN2C(=O)C(C(C)O)NC1=O | MY1750 |  | 0.5 µg/mL |
| Fc1ccc(CCCCn2c3c(c4cc(F)ccc42)CNCC3)cc1 | ATCC 90028 |  | 0.5 µg/mL |
| C/C(=N\NC(=O)CSc1n[nH]c(C)n1)c1ccccc1O | ATCC 90028 |  | 800 µg/mL |
| CCCCC(Cn1ccnc1)c1ccccc1Cl |  |  | 100 µg/mL |
| CC(C)[C@@H](NC(=O)N[C@@H](CCCN=C(N)N)CC(N)=O)NC(=O)[C@H]1CCCC[C@@H]1NC(=O)C[C@H](CCCN=C(N)N)NC(=O)N[C@@H](NC(=O)[C@H]1CCCC[C@@H]1NC(=O)C[C@H](CCCN=C(N)N)NC(=O)N[C@@H](NC(=O)[C@H]1CCCC[C@@H]1NC(=O)C[C@@H](N)Cc1ccc(O)cc1)C(C)C)C(C)C | SC5314 | XTT / broth dilution | 8 µg/mL |
| C/C(=N\NC(=O)CSc1ncn[nH]1)c1ccccc1O | ATCC 90028 |  | 800 µg/mL |
| C[C@@H](c1ncncc1F)[C@](O)(Cn1cncn1)c1ccc(F)cc1F | Isolate W2 |  | 0.015 µg/mL |
| C/C(=N\NC(=O)CSc1n[nH]c(C)n1)c1ccccc1[N+](=O)[O-] | ATCC 90028 |  | 200 µg/mL |
| C[C@@H](n1cnc2cc(OCC(F)(F)F)ccc2c1=O)[C@](O)(Cn1cncn1)c1ccc(F)cc1F | 60 strains |  | 0.31 µg/mL |
| Cc1c(C(=O)c2ccccc2)oc2ccc(Cl)cc12 | Clinical isolate |  | 50 µg/mL |
| N=C(N)c1ccc2oc(/C=C/c3cc4ccc(C(=N)N)cc4o3)cc2c1 |  |  | 30 µg/mL |
| CCC(C)CC(C)CCCCCCCCC(=O)N[C@H]1C[C@@H](O)[C@@H](OCCN)NC(=O)[C@@H]2[C@@H](O)CCN2C(=O)[C@H]([C@@H](O)CCN)NC(=O)[C@H]([C@H](O)[C@@H](O)c2ccc(O)cc2)NC(=O)[C@@H]2C[C@@H](O)CN2C(=O)[C@H]([C@H](C)O)NC1=O | ATCC 64548 |  | ≤0.007 µg/mL |
| Cc1cccc2c(=O)n([C@H](C)[C@](O)(Cn3cncn3)c3ccc(F)cc3F)cnc12 | 60 strains |  | 0.15 µg/mL |
| Cc1ccc(-c2nc3cc(C)ccc3o2)c(C)c1 |  |  | 25 µg/mL |
| N=C(N)c1ccc(C=Cc2ccc(C(=N)N)cc2)cc1 |  |  | 3 µg/mL |
| Cc1c(S(=O)(=O)c2ccccc2)[n+](=O)c2cc(Cl)ccc2n1[O-] | Clinical isolate 23 |  | 15.6 µg/mL |
| CC(C)C(=N)CCC=C1CO[C@@](Cn2cncn2)(c2ccc(F)cc2F)C1 | CI-2 |  | 100 µg/mL |
| Cc1c(C(=O)c2ccc(Cl)cc2)oc2ccccc12 | Clinical isolate |  | 25 µg/mL |
| CCc1nc(SCC(=O)N/N=C(\C)c2ccc([N+](=O)[O-])cc2)n[nH]1 | ATCC 90028 |  | 100 µg/mL |
| O=C(Cc1ccc([N+](=O)[O-])cc1)Nc1ccccc1O |  |  | 25 µg/mL |
| C[C@H](n1cnc2cc(C(F)(F)F)ccc2c1=O)[C@](O)(Cn1cncn1)c1ccc(F)cc1F | 60 strains |  | ≤0.03 µg/mL |
| CC(C)[C@H](NC(=O)C[C@@H](NC(=O)C[C@H](CCCCN)NC(=O)N[C@@H](NC(=O)C[C@@H](NC(=O)C[C@H](CCCCN)NC(=O)N[C@@H](NC(=O)C[C@@H](N)C(C)C)C(C)C)C(C)C)C(C)C)C(C)C)NC(=O)N[C@@H](CCCCN)CC(N)=O | SC5314 | XTT / broth dilution | 128 µg/mL |
| CCCC(Cn1ccnc1)c1ccc(F)cc1 |  |  | 100 µg/mL |
| CCc1nc(SCC(=O)N/N=C(\C)c2ccc(Cl)cc2)n[nH]1 | ATCC 90028 |  | 100 µg/mL |
| CCCCCCCC(Cn1ccnc1)c1ccc(Cl)cc1Cl |  |  | 10 µg/mL |
| Cc1cc(C)c2ncn([C@H](C)[C@](O)(Cn3cncn3)c3ccc(F)cc3F)c(=O)c2c1 | 76 strains |  | 10 µg/mL |
| Cc1ccc(C(C)C)cc1O | ATCC 10231 |  | 0.16 µg/mL |
| OC(Cn1cncn1)(Cn1cncn1)c1ccc(F)cc1F | 60 strains |  | 2.5 µg/mL |
| CC(C)C(=O)CCC[C@H]1CO[C@@](Cn2cccc2)(c2ccc(F)cc2F)C1 | B02630 |  | >100 µg/mL |
| CCCCCC(Cn1ccnc1)c1c(Cl)cccc1Cl |  |  | 10 µg/mL |
| N=C(N)c1ccc2oc(/C=C/C=C/C=C/c3cc4cc(C(=N)N)ccc4o3)cc2c1 |  |  | >60 µg/mL |
| CCCCCCCCC(Cn1ccnc1)c1ccccc1Br |  |  | >100 µg/mL |
| CN[C@@H]1[C@H](O[C@@H]2OC[C@@H](O)[C@H](O)[C@H]2O)[C@@H](O)[C@H](O[C@H]2c3cc(C)c(C(=O)N[C@H](C)C(=O)O)c(O)c3-c3c(cc4c(c3O)C(=O)c3cc(OC)cc(O)c3C4=O)[C@@H]2O)O[C@@H]1C | A9540 |  | 12.5 µg/mL |
| O=C(c1ccc(Cl)cc1)c1oc2ccccc2c1Cn1ccnc1 | Clinical isolate |  | 25 µg/mL |
| CCCCC(Cn1ccnc1)c1ccc(Cl)cc1Cl |  |  | 10 µg/mL |
| O=C(c1ccccc1)c1oc2ccc(Cl)cc2c1Cn1ccnc1 | NRRL Y-27077 |  | 25 µg/mL |
| NC(N)=Nc1ccc(-c2cc3cc(N=C(N)N)ccc3o2)cc1 |  |  | 60 µg/mL |
| CCCCCCCCC(Cn1ccnc1)c1ccc(F)cc1 |  |  | 10 µg/mL |
| O=C(Nc1cc(Cl)ccc1O)c1ccc(F)cc1 |  |  | 25 µg/mL |
| CCCCCCC(Cn1ccnc1)c1ccc(Br)cc1 |  |  | 10 µg/mL |
| CC(C)C(=O)CCC[C@@H]1CO[C@@](Cn2ccnc2)(c2ccc(F)cc2F)C1 | IFO. 1385 |  | <0.1 µg/mL |
| CCOc1cc2c(cc1F)n([O-])c(C)c(S(=O)(=O)c1ccccc1)[n+]2=O | Clinical isolate 14 |  | 31.25 µg/mL |
| CCC(C)[C@H](N)CC(=O)N[C@@H](CC)NC(=O)N[C@@H](CCCN=C(N)N)CC(=O)N[C@H](CC(=O)N[C@@H](CC)NC(=O)N[C@@H](CCCN=C(N)N)CC(=O)N[C@H](CC(=O)N[C@@H](CC)NC(=O)N[C@@H](CCCN=C(N)N)CC(N)=O)C(C)CC)C(C)CC | SC5314 | XTT / broth dilution | 128 µg/mL |
| C(=C\c1cc2cc(C3=NCCN3)ccc2o1)/c1ccc(C2=NCCN2)cc1 |  |  | >60 µg/mL |
| CC(C)C(=N)CCC[C@H]1CO[C@@](Cn2cccc2)(c2ccc(F)cc2F)C1 | IFO. 1385 |  | 12.5 µg/mL |
| Cc1c(Cl)[n+](=O)c2cc(Cl)ccc2n1[O-] | Clinical isolate 5 |  | 7.8 µg/mL |
| CCCC(O)C/C=C\C=C\C(=O)OC[C@H]1O[C@@H](O[C@@H]2[C@H](OC(=O)/C=C/C=C/CC(O)/C(C)=C/C=C/CCC(C)CC)[C@@H](O)[C@]3(OCc4cc(O)cc(O)c43)O[C@@H]2CO)[C@H](O)[C@@H](O)[C@H]1O | MY1585 |  | 2 µg/mL |
| O=C(Nc1ccccc1O)c1ccc([N+](=O)[O-])cc1 |  |  | 25 µg/mL |
| C[C@@H](NC(=O)N[C@@H](CCCCN)CC(N)=O)NC(=O)[C@H]1CCCC[C@@H]1N | SC5314 | XTT / broth dilution | >128 µg/mL |

Again, the opening 5 rows:

{"compound": "CCc1nc(SCC(=O)N/N=C(\\C)c2ccccc2Cl)n[nH]1", "strain": "ATCC 90028", "result": "200 µg/mL"}
{"compound": "C[C@@H](n1cnc2cc(-n3ncnn3)ccc2c1=O)[C@](O)(Cn1cncn1)c1ccc(F)cc1F", "strain": "76 strains", "result": "5 µg/mL"}
{"compound": "CCCCCCCCCCCCCCCCCC(=O)NC1CC(O)C(O)NC(=O)C2C(O)C(C)CN2C(=O)C(C(C)O)NC(=O)C(C(O)C(O)c2ccc(O)cc2)NC(=O)C2CC(O)CN2C(=O)C(C(C)O)NC1=O", "strain": "MY1750", "result": "0.5 µg/mL"}
{"compound": "Fc1ccc(CCCCn2c3c(c4cc(F)ccc42)CNCC3)cc1", "strain": "ATCC 90028", "result": "0.5 µg/mL"}
{"compound": "C/C(=N\\NC(=O)CSc1n[nH]c(C)n1)c1ccccc1O", "strain": "ATCC 90028", "result": "800 µg/mL"}

Rows are shuffled and stem from different studies.